Anti-infective test results gathered from many reports (values: NIAID ChemDB through PubChem).

Common to all: growth or infection tests; species: Aspergillus fumigatus; endpoint: MIC

An empty or dashed field is not shown. Conditions beyond the fields shown may differ between rows.

structure | strain | read by | result
C[C@H]1[C@H](O)[C@@H](C)/C=C/C=C/C=C/C=C/C=C/C=C/C=C/[C@H](O[C@@H]2O[C@H](C)[C@@H](O)[C@H](N)[C@@H]2O)C[C@@H]2O[C@](O)(C[C@@H](O)C[C@@H](O)CC[C@H](O)[C@@H](O)C[C@@H](O)CC(=O)O[C@H]1C)C[C@H](O)[C@H]2C(=O)O |  | XTT | 0.5 µg/mL
O=C(CSc1nnc(-c2ccc3ncccc3c2)o1)Nc1nc2ccc([N+](=O)[O-])cc2s1 |  | agar | 50 µg/mL
Oc1ccc(CCN=C=S)cc1 | Rit 11 | visual reading | 4 µg/mL
CCCCCCCCCCCC(=O)NC(CCCN)C(=O)NC(CCCN)C(=O)NC(CCCN)C(=O)NC(CCCN)C(=O)NC(CCCN)C(N)=O | ATCC 42203 | broth dilution | 12.5 µg/mL
CN1CCN(c2n[nH]c(N3C(=O)CS[C@@H]3c3ccc4c(c3)OCO4)n2)CC1 | 168.95 | broth dilution | 50 µg/mL
CC(C)c1ccc(NS(=O)(=O)c2ccc(CN(C)CC(O)(Cn3cncn3)c3ccc(F)cc3F)cc2)cc1 | 98 003 | resazurin | 3.33 µg/mL
CC(C)CCCCCCCCCC1CC(=O)NCC(=O)N[C@@H](CCCCN)C(=O)N[C@@H](C(C)C)C(=O)N1 | TIMM0063 |  | >80 µg/mL
N#Cc1ccc2nc(NC(=O)CSc3nnc(-c4ccc5ncccc5c4)o3)sc2c1 |  | agar | 50 µg/mL
CN(Cc1ccc(S(=O)(=O)N2CCOCC2)cc1)CC(O)(Cn1cncn1)c1ccc(F)cc1F | 98 003 | resazurin | 3.25 µg/mL
CCC(C)CCCCCCCCC1CC(=O)NCC(=O)N[C@@H](CCCN)C(=O)N[C@@H](C(C)C)C(=O)N1 | TIMM0063 |  | >80 µg/mL
CN1CCN(c2n[nH]c(N3C(=O)CS[C@@H]3c3ccc(Cl)cc3)n2)CC1 | 168.95 | broth dilution | 100 µg/mL
Cc1noc(NS(=O)(=O)c2ccc(N)cc2)c1C | IFM 41362 |  | 128 µg/mL
COC(=O)N[C@H](C(=O)NN(CCC[C@@]1(Cc2ccccc2)C(=O)N(C2c3ccccc3C[C@H]2O)C[C@H]1O)Cc1ccc(-c2cccnc2)cc1)C(C)(C)C | RCMB 002003 | agar | 7.8 µg/mL
C[C@@H](c1ncncc1F)[C@](O)(Cn1cncn1)c1ccc(F)cc1F |  | XTT | 0.5 µg/mL
COC(=O)N[C@H](C(=O)NN(CC[C@@]1(Cc2ccccc2)C(=O)N(C2c3ccccc3C[C@H]2O)C[C@H]1O)Cc1ccc(-c2cccnc2)cc1)C(C)(C)C | RCMB 002003 | agar | 15.6 µg/mL
O=C(CSc1nnc(-c2ccc3ncccc3c2)o1)Nc1nc2ccc(I)cc2s1 |  | agar | 100 µg/mL
C[C@H]1[C@H](O)[C@@H](C)/C=C/C=C/C=C/C=C/C=C/C=C/C=C/[C@H](O[C@@H]2O[C@H](C)[C@@H](O)[C@H](N)[C@@H]2O)C[C@@H]2O[C@](O)(C[C@@H](O)C[C@@H](O)CC[C@H](O)[C@@H](O)C[C@@H](O)CC(=O)O[C@H]1C)C[C@H](O)[C@H]2C(=O)O |  | broth dilution / resazurin | 3.9 µg/mL
CN(Cc1ccc(S(=O)(=O)Nc2ccc([N+](=O)[O-])cc2)cc1)CC(O)(Cn1cncn1)c1ccc(F)cc1F | 98 003 | resazurin | 2.57 µg/mL
COc1cc(NS(=O)(=O)c2ccc(N)cc2)ncn1 | IFM 51126 |  | 64 µg/mL
CCCCCCCCCCCCCC(=O)NC(CCCN)C(=O)NC(CCCN)C(=O)NC(CCCN)C(=O)NC(CCCN)C(=O)NC(CCCN)C(N)=O | ATCC 42203 | broth dilution | 3.1 µg/mL
N#Cc1ccc(Nc2nc(Oc3cccc4cccnc34)nc(N3CCOCC3)n2)cc1C(F)(F)F | MTCC 343 | agar | 50 µg/mL
CCCCCCCCCC(=O)NC(CCCN)C(=O)NC(CCCN)C(N)=O | ATCC 42203 | broth dilution | 100 µg/mL
CC(C)CC1NC(=O)CC(CCCCCCCCC(C)O)OC(=O)C(CC(C)C)NC(=O)C(CC(C)C)NC(=O)C(CC(C)C)NC(=O)C(C(C)C)NC(=O)C(CC(=O)O)NC(=O)C(CC(C)C)NC1=O | Clinical isolate | absorbance | 4 µg/mL
N=C(N)c1ccc(OCCCCCCOc2ccc(C(=N)N)cc2)cc1 |  | agar diffusion / agar | 35 µg/mL
CCCCCCCC/C=C\CCCCCCCC(=O)N[C@H](C(=O)N1C[C@H](C)C[C@H]1C(=O)N[C@H](C(=O)N[C@@H](CCO)C(=O)N[C@@H](C)C=O)C(C)C)[C@@H](C)O | MF5668 | broth dilution / visual reading | >32 µg/mL
COc1cc(NS(=O)(=O)c2ccc(N)cc2)nc(OC)n1 | IFM 47450 |  | 128 µg/mL
COc1ccc([C@H]2SCC(=O)N2c2nc(N3CCN(C)CC3)n[nH]2)cc1OC | 168.95 | broth dilution | 10 µg/mL
CN(Cc1ccc(NS(=O)(=O)c2ccc([N+](=O)[O-])cc2)cc1)CC(O)(Cn1cncn1)c1ccc(F)cc1F | 98 003 | resazurin | 3.57 µg/mL
Cc1nnc(NS(=O)(=O)c2ccc(N)cc2)s1 | IFM 47450 |  | ≥256 µg/mL
CCCCCCCCCCCCCC(=O)NC(CCCN)C(N)=O | ATCC 42203 | broth dilution | >100 µg/mL
CCC(C)CC(C)CCCCCCCCC(=O)N[C@H]1C[C@@H](O)[C@H](NCCN)NC(=O)[C@@H]2[C@@H](O)CCN2C(=O)[C@H]([C@H](O)CCN)NC(=O)[C@H]([C@H](O)[C@@H](O)c2ccc(O)cc2)NC(=O)[C@@H]2C[C@@H](O)CN2C(=O)[C@H]([C@@H](C)O)NC1=O | ND158 | broth dilution | 0.03 µg/mL
CN1CCN(c2nc(Nc3ccc(C#N)c(C(F)(F)F)c3)nc(Oc3cccc4cccnc34)n2)CC1 | MTCC 343 | agar | 50 µg/mL
CN(Cc1ccc(S(N)(=O)=O)cc1)CC(O)(Cn1cncn1)c1ccc(F)cc1F | 98 003 | resazurin | 2.45 µg/mL
O=C(CSc1nnc(-c2ccc3ncccc3c2)o1)Nc1nc2ccc(Cl)cc2s1 |  | agar | 100 µg/mL
N#Cc1ccc(Nc2nc(Oc3cccc4cccnc34)nc(N3CCN(c4ccccc4)CC3)n2)cc1C(F)(F)F | MTCC 343 | agar | 100 µg/mL
COC(=O)N[C@H](C(=O)NN(CCC[C@@]1(Cc2ccccc2)C(=O)N(C2c3ccccc3C[C@H]2O)C[C@H]1O)Cc1ccc(Br)cc1)C(C)(C)C | RCMB 002003 | agar | 15.6 µg/mL
CN(Cc1ccc(NS(=O)(=O)c2ccccc2)cc1)CC(O)(Cn1cncn1)c1ccc(F)cc1F | 98 003 | resazurin | 3.29 µg/mL
COC(=O)N[C@H](C(=O)NN(CCC[C@@]1(Cc2ccccc2)C(=O)N(C2c3ccccc3C[C@H]2O)C[C@H]1O)Cc1ccc(-c2ccccn2)cc1)C(C)(C)C | RCMB 002003 | agar | 15.6 µg/mL
N#Cc1ccc(Nc2nc(Oc3cccc4cccnc34)nc(N3CCN(c4ncccn4)CC3)n2)cc1C(F)(F)F | MTCC 343 | agar | 6.25 µg/mL
Cc1ccc(C(C)C)cc1O | F17 |  | 0.16 µg/mL
COC(=O)N[C@H](C(=O)NN(CC[C@@]1(Cc2ccccc2)C(=O)N(C2c3ccccc3C[C@H]2O)C[C@@H]1O)Cc1ccc(Br)cc1)C(C)(C)C | RCMB 002003 | agar | 7.8 µg/mL